Test results taken from the supplement of paper PMC9931576.
Human monoclonal antibodies against the spike receptor-binding domain (heavy:light variable regions). IC50 against pseudoviruses bearing the spike of naturally observed variants; lower = stronger; >10 µg/ml means not reached at the top dose. No active / inactive call. The stated detection limit is 0.0005 µg/ml; values near or below 0.001 µg/ml lie at the floor of the assay.

B1: BD55-6699 (protein)
chain 1: QVQLVQSGGEVKKPGASVKVSCKASGYTFSNYGISWMRQAPGQGLEWMGWISGYNGKTNYAQKFQGKVTMTTDTSTSTAYMELRSLRSDDTAVYYCARDPVNYEYSGYDDLLSDIFDYWGQGTLVTVSS
chain 2: DIQMTQSPSSLSASVGDRVTITCRASQGIRNDLAWYQQKPGKAPERLIYAASSLQGGVPSRFSGSGSGTAFTLTISSLQPEDSATYYCLQHNTIPRTFGQGTKLEIK
B2: BD55-6677 (protein)
chain 1: QVQLLESGPGLVKPSQTLSLTCTVSGDAVNSDRHYWAWIRQPAGKGLEWVGHIYNTGSANYNPSLNRRATISVAASKTQFSLRLTSVTAADTAIYFCARGNMVVAGPYYHFGMDVWGHGTPVTVSS
chain 2: SYDLTQPPSVSVSPGQTATITCSGDVLPKQYGFWYQLKPGQAPVLVISKDSERPSWIPERFSGSISGSTVTLTISGVQAEDEADYYCQSTDFSGSLLFGGGTKLTVL
B3: BD55-1307 (protein)
chain 1: QVQLVQSGAEVKKPGSSVKVSCTASGGTFSSYSINWVRQAPGQGLEWMGRIIPMLGVANYAQKFQGRVTITADKSTSTACMELTSLRSEDTAVYYCAREGPGYGYNSGSTEYFQRWGQGTLVTVSS
chain 2: QSVLTQPPSVSGAPGQRVTISCTGSSSNIGAGYDVHWYQQLPGTAPKLLIYGNSNRPSGVPDRFSGSKSGTSASLAITGLQAEDEADYYCQSYDSSLSDFVFGTGTKVTVL
B4: BD55-6710 (protein)
chain 1: QVQLSQSGAEVKRPGASVKVSCKTSGYPFTDYGISWVRQAPGQGLEWMGWISGYNENTKYAQKFQGRVTLTTDTSTNTAFMEVRRLTSDDTAVYYCARDAGYCTTIGCFAAWYFDLWGRGTLVTVTS
chain 2: QSVLTQPSSVSGAPGQRVTISCTGSSSNIGAGFDVHWYQQLPGTAPQLLIYGNTNRPSGVPDRFSGSKSGTSASLAITGLQAEDEADYYCQAYDSSLSGWVFGGGSKLTVL
B5: BD55-6689 (protein)
chain 1: QVQLVQSGAEVRRPGASVRLSCKSSGYTFTTYYIHWVRRAPGQGLEWVGIINPSDGGTNFAQKFQGRVTMTRDTSTNTVYMELSSLKSEDTAVYYCAKALIVAGAPIYSYYCGVDVWGQGTAVTVSS
chain 2: SYELTQPPSVSVSPGQTAIITCSGDALPKQYAYWYHQKPGQAPVLLIYKDGERPSGIPERFFGSSSGTTVTLTISGAQAEDEADYYCQSTDSSGTYVVFGGGTKLTVL
B6: BD55-1297 (protein)
chain 1: DVQLVESGGGLVQPGGSLRLSCAASGFTFRNYDMHWVRQISGETLEWVSAIGTSGDTYYADSVKGRFSVSRENAKNSFYLQMNSLTAGDTAMYYCTRGDLSSSSNWYFDLWGRGTLVAVSS
chain 2: DIQMTQSPSSLSASVGDRVTITCRASQSIRNYLNWYQQKPGKAPKLLIYAASSLQSGVPSRFSGSGSGTEFTLTITTLQPEDFATYYCQQNYVMPPITFGQGTRLDMK
B7: BD55-6679 (protein)
chain 1: QVQLQESGPGLVKPSQTLSLTCTVSGGSIGRGGYFWSWVRQHPGKGLQWIGHIYFSGNTYNNPSLKSRSTLSLDTSKNQFSLTLTSVTVADTAVYYCARVGFYASGTYYFDYWGQGTLVTVSS
chain 2: SSELTQDPAVSVALGQTVRIACQGASLRTYFASWYQQKPGQAPLLVFYGKNNRPSGIPDRFSGSSSGNTAFLTITGAQAEDEADYYCNSRDSSGNYLVFGGGTKLTVL
B8: BD55-6687 (protein)
chain 1: QVQLVESGGGVVQPGRSLRLSCAASGFTFRYHGMHWVRQAPGKGLEWVAVIWNDGTNKYYADSVKGRFTISRDNSKNTLYLQMYSLRAEDTAVYYCAREAPEGSGSFFTLRLDYWGQGTHVTVSS
chain 2: DIQMTQSPSSLSASVGDRVTITCRASQSISGNLNWYQQKAGRAPKLLIYAASSLESGVPSGFSGSGSGTDFTLTISSLQPEDFATYFCQQSYSSPYTFGQGTKLEIK
B9: BD55-6695 (protein)
chain 1: QVQLVQSGAEVKKPGASVKISCKASGYTFTNYYIHWVRQAPGQGLEWMGIAHPSGARINYAQKLQGRVTMTRDTATSTAYMELNSLTSEDTAIYYCARDRLLIGTVGPEWFDPWGQGTLIIVSS
chain 2: DIQLTQSPSSLSASVGDRVTITCRASQFINTYLNWYQQKSGRAPRVLIYAASTLQSGVPSRFSGSGSGTDFSLTISSLQPEDVAIYYCQQSYSTPPWTFGQGTKVEI
B10: BD55-6671 (protein)
chain 1: QVQLVESGGGVVQPGRSLRVSCVASGFTFRNYGMHWVRQTPGKGLEWVAVISYDGSSKYYADSVKGRFTISRDNSKDTLYLQMSSLRGEDTAVYYCAKVEDALRYFERPGPFDYWGQGTLVTVSS
chain 2: EVVLTQSPDFQSVTPKETVTITCRASQNIGSGLHWYQQKPDQSPKLLIKYTSQSFSGVPSRFSGSGSGTDFTLTIKSLEAEDAATYYCHQSSIGYTFGQGTKLEIK
B11: BD55-6694 (protein)
chain 1: DVQLVQSGAEVKKPGESLKISCKGSENNFANHWIGWVRQRPGKGLEWMGVIYPGDSDTRYGPSFQGQVTMSVDKSISTAYLQWSSLKASDTAMYFCASRNWGYYSYGMDVWGQGTTVIVSS
chain 2: DIQMTQSPSSVSASVGDRVTITCRASQGISNWLAWYQQKPGKAPNLLIYSASTLQSGVPSRFSGSGSGTDFTLTIDSLQPEDFATYYCQQASTFPPTFGQGTRLEI
B12: BD55-6706 (protein)
chain 1: EVQLVESGGGLVQPGGSLRLSCAASGFTFSKYWMHWVRQAPGKGLVWVGRLNSDGSNTDYADSVRGRFTFSRDNAKNTLYLQLNSLRVEDTAVYYCAREEGYYYYYMDVWGKGTTVTVSS
chain 2: DIQMTQSPSSLSASVGDRVTITCRASQSISNYLNWYQHKPGKAPKLLIYSASTLQSGVPSRFSGSGSGTDFTLTISSLQPEDFATYYCQQSYTMPPLTFGGGTKVEIK

Biological target: SARS-CoV-2 Omicron BA.1 spike pseudovirus
Assay: pseudovirus neutralization IC50; higher = weaker neutralization
Protocol: (§1)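 Single-round VSV luciferase pseudovirus mixed with antibody dilutions for 1 h and put on Huh-7 cells for about a day; IC50 from the dose curve.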

Binder	pseudovirus neutralization IC50
B1	3.16 µg/mL
B2	0.139 µg/mL
B3	0.0772 µg/mL
B4	> 10 µg/mL
B5	> 10 µg/mL
B6	> 10 µg/mL
B7	> 10 µg/mL
B8	0.0853 µg/mL
B9	> 10 µg/mL
B10	> 10 µg/mL
B11	> 10 µg/mL
B12	> 10 µg/mL

Biological target: SARS-CoV-2 Omicron BA.2 spike pseudovirus
Assay: as above
Protocol: as §1

Binder	pseudovirus neutralization IC50
B1	> 10 µg/mL
B2	0.179 µg/mL
B3	0.101 µg/mL
B4	> 10 µg/mL
B5	> 10 µg/mL
B6	> 10 µg/mL
B7	> 10 µg/mL
B8	> 10 µg/mL
B9	> 10 µg/mL
B10	> 10 µg/mL
B11	> 10 µg/mL
B12	> 10 µg/mL

Biological target: SARS-CoV-2 Omicron BA.2.75 spike pseudovirus
Assay: as above
Protocol: as §1

Binder	pseudovirus neutralization IC50
B1	> 10 µg/mL
B2	0.35 µg/mL
B3	0.0909 µg/mL
B4	> 10 µg/mL
B5	> 10 µg/mL
B6	> 10 µg/mL
B7	> 10 µg/mL
B8	> 10 µg/mL
B9	> 10 µg/mL
B10	> 10 µg/mL
B11	> 10 µg/mL
B12	> 10 µg/mL

Biological target: SARS-CoV-2 Omicron BA.5 spike pseudovirus
Assay: as above
Protocol: as §1

Binder	pseudovirus neutralization IC50
B1	> 10 µg/mL
B2	0.578 µg/mL
B3	> 10 µg/mL
B4	> 10 µg/mL
B5	> 10 µg/mL
B6	> 10 µg/mL
B7	> 10 µg/mL
B8	> 10 µg/mL
B9	> 10 µg/mL
B10	> 10 µg/mL
B11	> 10 µg/mL
B12	> 10 µg/mL

Biological target: SARS-CoV-2 Omicron BQ.1.1 spike pseudovirus
Assay: as above
Protocol: as §1

Binder	pseudovirus neutralization IC50
B1	> 10 µg/mL
B2	> 10 µg/mL
B3	> 10 µg/mL
B4	> 10 µg/mL
B5	> 10 µg/mL
B6	> 10 µg/mL
B7	> 10 µg/mL
B8	> 10 µg/mL
B9	> 10 µg/mL
B10	> 10 µg/mL
B11	> 10 µg/mL
B12	> 10 µg/mL

Biological target: SARS-CoV-2 Omicron XBB spike pseudovirus
Assay: as above
Protocol: as §1

Binder	pseudovirus neutralization IC50
B1	> 10 µg/mL
B2	> 10 µg/mL
B3	> 10 µg/mL
B4	> 10 µg/mL
B5	> 10 µg/mL
B6	> 10 µg/mL
B7	> 10 µg/mL
B8	> 10 µg/mL
B9	> 10 µg/mL
B10	> 10 µg/mL
B11	> 10 µg/mL
B12	> 10 µg/mL

Biological target: SARS-CoV-2 early D614G spike pseudovirus
Assay: as above
Protocol: as §1

Binder	pseudovirus neutralization IC50
B1	0.143 µg/mL
B2	0.00607 µg/mL
B3	0.109 µg/mL
B4	> 10 µg/mL
B5	0.0885 µg/mL
B6	1.95 µg/mL
B7	> 10 µg/mL
B8	0.0237 µg/mL
B9	> 10 µg/mL
B10	0.137 µg/mL
B11	> 10 µg/mL
B12	> 10 µg/mL
